Laboratory results from patent US20230287087A1 (MAX PLANCK GESELLSCHAFT ZUR F RDERUNG DER WISSENSCHAFTEN E V, published 2023).
Changes are numbered by the printed parent chain.

B1: Re11E11 (VHH)
VHH: QVQLVESGGGSVEAGGSLRLSCAASGRTFNNYNIVWFRQAPGKEREFVAAINWNGGSTSYANSVKGRFAVSRDNAKNTVYLQMNNLKHEDTAEYLCYTVGPEGDYWGQGTQVTVSS
B2: Re11C10 (VHH)
VHH: B1 VHH with F29L, N30D, I34A, G56S, S57N, A61G
B3: Re5C08 (VHH)
VHH: B1 VHH with N31D, I34M, N52K, S57N, N62D
B4: Re6D09 (VHH)
VHH: B1 VHH with I34M, N62A, R72I, V79L
B5: Re9G12 (VHH)
VHH: QVQLVESGGGLVQAGGSLRLSCAASGRTFSSYVMGWFRQAPGKEREFVAHISWSGDSTYYADSVKGRFTIFRDNAKNTAYLQMNSLKPEDTAVYYCAADRGASYYYTWASEYNYWGQGTQVTVSS
B6: Re11G09 (VHH)
VHH: QVQLVESGGGLVHTGGSLRLSCAASGSIFNIYRMAWYRQAPGKQREKVAIITTYGLTDYADSVKGRFTISRDNAKNTTYLQMNSLKPDDTAVYYCNTDPPDLGPGYWGQGTQVTVSS
B7: Re5D06R28D (VHH)
VHH: QVQLVESGGGLVQPGGSLRLSCAISGSTLDYYAMGWFREAPGKEREGVARWRNNDGSTNYADSVKGRFTMSRDNAKDTYYLQMNSLEPEDTADYYCAYGPLTKYGDEWHWPYEYDYWGQGTQVTVSS
B8: Re7D05 (VHH)
VHH: QVQLVESGGGLVQAGGSLRLSCAASGRTFSSYAMGWFRQAPGKEREFVATISWSGGSTSYADSVKGRFTISRDNAKNTVYLQMNSLKPEDTAVYYCNAVTHHSDQDGGMDYWGKGTLVTVSS
B9: Re11F07 (VHH)
VHH: QVQLVESGGGLVQAGGSLRLSCAASGRAFSSGTMGWFRQAPGKEREFVATISWSGGSTSYARSVKGRFTISGDNAENTVYLQMNSLKPEDTAVYYCYAVSSGSDYDGGMDYWGKGTLVTVSS
B10: Re5C01 (VHH)
VHH: QVQLVESGGGLVQAGGSLRLSCGVSGRTFSSYAMGWFRQAPGKEREFVATISWSGGTTNYAHSVKGRFTISRDNAKNTVYLQMNSLKVEDTAVYYCYAVSSGSDYDGGMDYWGKGTQVTVSS
B11: Re22D04 (VHH)
VHH: QVQLVESGGGLVQTGGSLRLSCAASGRTFSDDAMGWFRQAPGKERDVVAALGWAGVSTYYADSVKGRFGISRDNAKNTVYLQMSSLKPEDTAVYYCAAAPSVAHARLGEWAYWGKGTQVTVSS
B12: Re8A03 (VHH)
VHH: QVQLVESGGGLVQPGGSLRLSCAASGRITGFNGMGWYRQTPGKQRELVASITNGGITKYADSVKGRFTISRDNAKNTVYLQMNSLKPEDTAVYLCYFWRPEFPNLYWGQGTQVTVSS
B13: Re8A06 (VHH)
VHH: QVQLVESGGGLVQAGGSLRLSCAASGSIFSINAMGWYRQAPGKERELVAAMGSSGWINYADSVKGRLTISRDNAKNTLYLQMNSLKPEDTAVYYCRGTGGVGPTSADYWGQGTQVTVSS
B14: Re7A01 (VHH)
VHH: QVQLVESGGGLVQAGGSLRLSCAASGRTFSSYAMGWFRQAPGKEREFVATISFSGSTSYAGHVKGRFTISRDNAKNTVYLQMNSLKPEDTAVYYCHAVTRASDQDGGMDYWGQGTQVTVSS
B15: Re8E12 (VHH)
VHH: QVQLVESGGGSVQPGGSLRLSCKVSGFTSDVDLRNYLVSWNRQAPGKERELVAAITPTVISGGNTNYADSVKGRFTISRDYSKSTVYLQMNSLNPEDTAVYYCKVGVYWGQGTQVTVSS
B16: Re8F03 (VHH)
VHH: B15 VHH with S11L, R19T, F27L, D30Y, N41Y, A44G, V59A, S61T, N64S, Y102S
B17: Re9G05 (VHH)
VHH: QVQLVESGGGLVQPGGSLRLSCAVSGNISSITAWDWHRQAPGKQRELVAHITSRGDTMYLDSVKGRFAISRDHAKNTLSLQMNSLKPEDTAVYYCYLRTFGPPYDYWGQGTQVTVSS
B18: Re9C07 (VHH)
VHH: QVQLVESGGGLVQAGGSLRLSCAASGRTFSRYAMGWFRQAPGKEREFVAAITWNADTTYYADSVKGRFTISRDNAKNTVYLQMNSLKPEDTAVYYCAAGGNHYYSRSYYSSLEYDHWGQGTQVTVSS

What follows are binders tested against SARS-CoV-2 spike protein (transiently expressed in transfected HeLa cells) (SARS-CoV-2, UniProt P0DTC2 14-1273) (assay: IF, spike-transfected HeLa cells).
B1: binds.
B2: binds.
B3: binds.
B4: binds.
B5: binds.
B6: binds.
B7: binds.
B8: binds.
B9: binds.
B10: binds.
B11: binds.
B12: binds.
B13: binds.
B14: binds.
B15: binds.
B16: binds.
B17: binds.
B18: binds.
